Percent effect of library compounds

A: 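Whole-cell growth test on Mycobacterium tuberculosis, read after 3 days in glucose-containing 7H9 medium; the read-out is not stated. Tested at 500 µM. Higher reads as more growth inhibition (inferred: compounds with an IC50 in retests scored well above the rest). About 18,000 compounds were tested under these conditions; 7.9% (about 1,400) showed 50% or more at least once.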
B: 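Phenotypic screen: M. tuberculosis growth, cholesterol and DPPC medium, 4 days; the read-out is not stated. Concentration: 500 µM. Higher reads as more growth inhibition (inferred: compounds with an IC50 in retests scored well above the rest). About 18,000 compounds were tested under these conditions; 5% (about 900) showed 50% or more at least once.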

Values are the deposited “Percent Effect”, in %. How 0% and 100% were set is not recorded. Most values in the screen are low, and negative values occur. The entries come from a sample that favours strong results. A dash means the value is not listed here; it may have been measured.

Compound: COC(=O)C(NC(=O)c1ccoc1)c1ccccc1 (centres undefined)
A: 12.17
B: 4.621

Compound: O=C(NCCc1nc(C2CC2)no1)c1cnco1
A: -4.467

Compound: Cc1cc(C(=O)N2CCN(C)CC(O)C2)sc1C (centres undefined)
B: 6.598

Compound: Cn1cc(CNC(=O)C2CSc3ccccc3O2)cn1 (centres undefined)
A: 64.08
B: 54.84

Compound: CN(C)[C@@H]1CN(C(=O)c2ccco2)C[C@H]1CO
B: -3.75

Compound: O=S(=O)(c1ccc(CN2CCC[C@H]2CO)cc1)C(F)F
B: 12.67

Compound: CC1CCCCN1S(=O)(=O)N1CCN(C)CC1 (centres undefined)
B: 8.764

Compound: CN(CCc1cnn(C)c1)C(=O)c1c[nH]c(=O)[nH]1
A: 6.215

Compound: OCC1CCN(c2ncccc2NC2CCCC2)CC1
A: -9.552

Compound: c1cn(C2CNC2)nn1
A: -0.4867
B: 3.733

Compound: O=C(COc1ncccn1)Nc1ccc(F)cc1F
B: 81.44

Compound: CN(CC(=O)N1CCOCC1)Cc1cc(Br)cs1
A: 57.3
B: 53.14

Compound: CCNc1ccc(N2CCOCC2)cc1
B: 26.18

Compound: O=C(Cn1c(=O)[nH]c(=O)c2ccccc21)NC1CC1
A: -8.597

Compound: NCc1nnc2n1CC(C(F)(F)F)CC2 (centres undefined)
A: 6.091

Compound: CC1CCN(C(=O)CSc2nncs2)CC1
B: 61.44

Compound: CC1(CNC(=O)c2cnccn2)CCOCC1
A: 30.88

Compound: CCN1CCCC1Cn1c(=O)[nH]c2ccccc2c1=O (centres undefined)
A: 6.631
B: 1.365

Compound: CCOC(=O)C(C)Nc1ccc2c(c1)CCCC(=O)N2 (centres undefined)
B: 71.35

Compound: COc1c(F)cccc1CN1C[C@H](O)[C@@H](N(C)C)C1
A: 13.44
B: 7.716

Compound: CC1(C)CN(C(=O)C2CC2)CCO1
A: 2.562

Compound: N#Cc1cc(Br)cc(S(=O)(=O)NCCCN)c1
A: 50.83

Compound: CC(NC(=O)c1ccc(Cl)c(I)c1)C(=O)N(C)C (centres undefined)
A: 50.43
B: 34.38

Compound: CCC(c1nnc(SCC(=O)NCC(C)C)o1)N(C)C (centres undefined)
A: 61.23
B: 54.71

Compound: CC(=O)Nc1ccc(C(=O)CSc2nnc[nH]2)cc1
A: 40.16

Compound: COc1ncc(C)cc1NC(=O)c1cc[nH]n1
B: -11.93

Compound: CCc1nccn1CC(=O)NCCCc1csc(N)n1
B: 2.662

Compound: Cc1cnc(NCc2cccn2C)s1
A: -2.998

Compound: Cc1cnc(C)c(NC(C)Cn2cncn2)n1 (centres undefined)
A: -4.228

Compound: Cc1cc(Cn2cc(S(=O)(=O)N(C)C)ccc2=O)no1
A: 12.74

Compound: Cc1ccc(CNC(=O)C2CCCCC(=O)N2)o1 (centres undefined)
A: 14.27

Compound: Cc1ccc(NC(=O)NCC(=O)NC(C)(C)C)cc1
A: 37.53

Compound: Cc1ccc(C(C)NC(=O)Nc2nccn(C)c2=O)o1 (centres undefined)
A: 50.49

Compound: Cc1cc(C)cc(NC(=O)NCC2(O)CCNC2)c1 (centres undefined)
A: 35.19

Compound: C1CC(C2COCCN2)C1 (centres undefined)
B: -25.55

Compound: N[C@H]1CN(C(=O)CCCn2ccnc2)C[C@@H]1C1CC1
B: -3.326

Compound: COCC(=O)Nc1cccc(CN(C)C(C)=O)c1
A: 4.078

Compound: Cn1nccc1CNC(=O)c1cccc(C#N)c1
B: -0.9033

Compound: O=C(N[C@H]1C[C@@H]2OCC[C@H]12)c1cc(O)ccc1F
B: 7.276

Compound: COc1ccccc1OCC(=O)NC(C)CCN(C)C (centres undefined)
A: 12.74

Compound: COC(=O)CCC(=O)Nc1ccccc1F
A: 2.085

Compound: Cc1cccc(C(=O)NC(C)c2nnc3n2CCC3)n1 (centres undefined)
A: -10.25

Some entries from above, unchanged:

Compound	A	B
CCc1nccn1CC(=O)NCCCc1csc(N)n1	-	2.662
CCC(c1nnc(SCC(=O)NCC(C)C)o1)N(C)C (centres undefined)	61.23	54.71
CC1(C)CN(C(=O)C2CC2)CCO1	2.562	-

From ChEMBL document CHEMBL3988442, “University of Dundee, Small-Polar-MMV Screening Library” (2021).